A mixed list of measured activities; the numbers were collected in NIAID ChemDB.

All rows: tests in culture; species: HIV-1; method: MTT; read-out: EC50

An empty or dashed field is not shown. Lines come from different laboratories, so protocols vary. ECn is the concentration giving n% inhibition of infection, replication or growth.

structure,strain or isolate,cell line,changes,result
C#Cc1ccc(Nc2nccc(Oc3c(C)cc(-c4cn(CC(=O)Nc5ccc(F)cc5)nn4)cc3C)n2)cc1,IIIB,MT-4,E138K,>1.41 µM
Cc1cc(C#N)cc(C)c1Oc1nc(NC2CCC(NCc3ccc(Br)cc3)CC2)nc2ccsc12,IIIB,MT-4,NNRTI-resistant (RT E138K),0.946 µM
CCOC(=O)c1ccc(NC(=O)CSc2nc3ncccc3n2-c2ccc(C3CC3)c3ccccc23)c(Br)c1,IIIB,MT-4,,0.58 µM
C=S(=C)(C)c1ccc(CN2CCC(Nc3nc(Nc4c(C)cc(C)cc4C)c4[nH]cnc4n3)CC2)cc1,IIIB,MT-4,,3.93 µM
Cc1cc(C)c(Oc2ncc([N+](=O)[O-])c(Nc3ccc(C#N)cc3)n2)c(C)c1,RES056,MT-4,,≥252 µM
CCOC(=O)C1CN(Cc2ccc(S(N)(=O)=O)cc2)CCC1Nc1nc(Oc2c(C)cc(C#N)cc2C)c2sccc2n1,IIIB,MT-4,NNRTI-resistant (RT L100I),0.389 µM
N#Cc1ccc(Nc2nccc(Oc3ccc(C(=O)CC(=O)C(=O)O)cc3)n2)cc1,IIIB,MT-4,Y181C,>48 µM
Cc1cc(C#N)cc(C)c1Oc1nc(NC2CCN(Cc3cccc(C(N)=O)c3)CC2)nc2sccc12,IIIB,MT-4,NNRTI-resistant (RT L100I),0.0105 µM
Cc1cc(-c2ccc(C#N)cc2)cc(C)c1Oc1nc(Nc2ccc(C#N)cc2)nc2ccsc12,IIIB,MT-4,E138K,0.0423 µM
NC(=O)c1ccc(NC(=O)CSc2nc3ncccc3n2-c2ccc(C3CC3)c3ccccc23)c(Br)c1,IIIB,MT-4,,0.073 µM
Cc1ccnc2c1NC(=O)c1cccnc1N2C1CC1,RES056,MT-4,,≥9.84 µM
CCOC(=O)C(=O)CC(=O)c1ccc(Oc2ccnc(Nc3ccc(C#N)cc3)n2)cc1,IIIB,MT-4,K103N + Y181C,>22 µM
Cc1cc(C)c(Nc2nc(NC3CCN(Cc4ccccc4C)CC3)nc3nc[nH]c23)c(C)c1,IIIB,MT-4,,>7.81 µM
Cc1cn([C@H]2C[C@H](N=[N+]=[N-])[C@@H](CO)O2)c(=O)[nH]c1=O,IIIB,MT-4,NNRTI-resistant (RT E138K),0.0073 µM
Cc1cc(C=O)cc(C)c1Oc1ncc(NC(=O)C(F)(F)F)c(Nc2ccc(C#N)cc2)n1,RES056,MT-4,,35.46 µM
Cc1cc(C)c(Nc2nc(NC3CCN(Cc4ccncc4)CC3)nc3nc[nH]c23)c(C)c1,IIIB,MT-4,,18.21 µM
Cc1cc(C#N)cc(C)c1Oc1nc(Nc2ccc(C#N)cc2)nc(N)c1Br,IIIB,MT-4,NNRTI-resistant (RT E138K),0.0144 µM
C#Cc1ccc(Nc2nccc(Oc3c(C)cc(-c4cn(CC(=O)Nc5ccc(Br)cc5)nn4)cc3C)n2)cc1,IIIB,MT-4,E138K,>19.78 µM
CC(=O)c1ccc(NC(=O)CSc2nc3ncccc3n2-c2ccc(C3CC3)c3ccccc23)c(Br)c1,IIIB,MT-4,,0.15 µM
Cc1cc(Br)cc(C)c1Oc1ncc(N)c(Nc2ccc(C#N)cc2)n1,RES056,MT-4,,4.89 µM
C=S(=C)(N)c1ccc(CN2CCC(Nc3nc(Nc4c(C)cc(C)cc4C)c4[nH]cnc4n3)CC2)cc1,RES056,MT-4,,>23.89 µM
CC(=O)Nc1cnc(Oc2c(C)cc(C)cc2C)nc1Nc1ccc(C#N)cc1,IIIB,MT-4,,9.27 µM
C#Cc1ccc(Nc2nccc(Oc3c(C)cc(-c4cn(-c5ccc(C(=O)OC)cc5)nn4)cc3C)n2)cc1,IIIB,MT-4,L100I,1.04 µM
COC(=O)c1ccc(NC(=O)CSc2nc3ncccc3n2-c2ccc(C3CC3)c3ccccc23)c([N+](=O)[O-])c1,RES056,MT-4,,>2.46 µM
N#Cc1ccc(Nc2nc(Oc3ccc(-c4ccc(C#N)cc4)c(F)c3)c3sccc3n2)cc1,IIIB,MT-4,,0.1015 µM
NS(=O)(=O)c1ccc(NC(=O)CSc2nc3ncccc3n2-c2ccc(C3CC3)c3ccccc23)c(Br)c1,RES056,MT-4,,>1.69 µM
N#Cc1ccc(Nc2nc(Oc3ccc(-c4ccc(C#N)cc4)cc3[N+](=O)[O-])c3sccc3n2)cc1,IIIB,MT-2,Y181C,0.0551 µM
CCOC(=O)C(=O)CC(=O)c1cccc(Oc2ccnc(Nc3ccc(C#N)cc3)n2)c1,IIIB,MT-4,F227L + V106A,>13 µM
CC(C)Nc1cccnc1N1CCN(C(=O)c2cc3cc(NS(C)(=O)=O)ccc3[nH]2)CC1,IIIB,MT-4,,0.038 µM
Cc1ccnc2c1NC(=O)c1cccnc1N2C1CC1,IIIB,MT-2,Y181C,>15.9 µM
NS(=O)(=O)c1ccc(NC(=O)CSc2nncnc2-c2cccc3ccccc23)c(Br)c1,,MT-4,,0.018 µM
Cc1cc(C)c(Oc2ncc(N)c(Nc3ccc(C#N)cc3)n2)c(C)c1,IIIB,MT-4,,0.0072 µM
C#Cc1ccc(Nc2nccc(Oc3c(C)cc(-c4cn(Cc5ccc(C(N)=O)cc5)nn4)cc3C)n2)cc1,IIIB,MT-4,L100I,0.63 µM
Cc1cc(C=O)cc(C)c1Oc1ncc(N)c(Nc2ccc(C#N)cc2)n1,IIIB,MT-4,,0.066 µM
O=C(CSc1nc2ncccc2n1-c1ccc(C2CC2)c2ccccc12)Nc1cccnc1Cl,IIIB,MT-4,,0.22 µM
Cc1cc(Br)cc(C)c1Oc1ncc([N+](=O)[O-])c(Nc2ccc(C#N)cc2)n1,IIIB,MT-4,,0.0636 µM
Cc1cc(C)c(CN2CCC(Nc3nc(Nc4c(C)cc(C)cc4C)c4[nH]cnc4n3)CC2)c(C)c1,IIIB,MT-4,,>4.8 µM

The last 6 rows once more:

structure,strain or isolate,cell line,changes,result
Cc1cc(C)c(Oc2ncc(N)c(Nc3ccc(C#N)cc3)n2)c(C)c1,IIIB,MT-4,,0.0072 µM
C#Cc1ccc(Nc2nccc(Oc3c(C)cc(-c4cn(Cc5ccc(C(N)=O)cc5)nn4)cc3C)n2)cc1,IIIB,MT-4,L100I,0.63 µM
Cc1cc(C=O)cc(C)c1Oc1ncc(N)c(Nc2ccc(C#N)cc2)n1,IIIB,MT-4,,0.066 µM
O=C(CSc1nc2ncccc2n1-c1ccc(C2CC2)c2ccccc12)Nc1cccnc1Cl,IIIB,MT-4,,0.22 µM
Cc1cc(Br)cc(C)c1Oc1ncc([N+](=O)[O-])c(Nc2ccc(C#N)cc2)n1,IIIB,MT-4,,0.0636 µM
Cc1cc(C)c(CN2CCC(Nc3nc(Nc4c(C)cc(C)cc4C)c4[nH]cnc4n3)CC2)c(C)c1,IIIB,MT-4,,>4.8 µM